This passage reports EC50 results from publication PMC9040839, “Chemotaxis of the Human Pathogen Pseudomonas aeruginosa to the Neurotransmitter Acetylcholine” (mBio, 2022).

Chains of the proteins cited; added tags and fusions are not shown.
UniProt Q9HVF8, entry or part of it: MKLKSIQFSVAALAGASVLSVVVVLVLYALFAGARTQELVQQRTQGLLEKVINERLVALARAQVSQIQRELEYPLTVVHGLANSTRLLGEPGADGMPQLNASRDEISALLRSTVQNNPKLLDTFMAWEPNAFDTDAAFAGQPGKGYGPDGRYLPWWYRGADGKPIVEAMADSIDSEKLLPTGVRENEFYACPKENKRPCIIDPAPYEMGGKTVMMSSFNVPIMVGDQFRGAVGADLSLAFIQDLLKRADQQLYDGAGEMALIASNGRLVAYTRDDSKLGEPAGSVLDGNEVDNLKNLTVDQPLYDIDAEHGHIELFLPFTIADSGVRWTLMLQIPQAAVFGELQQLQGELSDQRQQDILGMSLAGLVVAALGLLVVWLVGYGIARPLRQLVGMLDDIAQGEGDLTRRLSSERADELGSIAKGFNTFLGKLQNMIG

Structures are written as SMILES.

The target of this assay is PctD-Tar hybrid (Pseudomonas aeruginosa, UniProt Q9HVF8). Kind of assay: cell-based.

Consider `CC(=O)OCC[N+](C)(C)C` [acetylcholine], for which a half-maximal effect (EC50) was put at 70 ± 20 nM.
